Laboratory results taken from article PMC6224051.
Construct, isoform or probe ends are uncertain for at least one entry.

Test system: GST-TRP47 full-length (Ehrlichia chaffeensis)
Experiment: EMSA
Conditions: competed by 100-250x unlabeled P4, supershifted by anti-TRP47; 10 mM Tris, 50 mM KCl, 1 mM DTT, 5 mM MgCl2, 2.5% glycerol, 0.05% NP-40, 25 ng/ul poly(dI-dC), 4 C, 1 h; pH not stated; up to 2500 pM probe, up to 10 ug protein; recombinant protein; protein details: N-terminal GST (pGEX-6P-1); label: biotin

TCCGCCTCCCGGGTTCACGCCATTCTCCGTCTAA (double strand) [P4]
binding result: binds
